# Laboratory results as given in publication PMC7486241 (Cell Host & Microbe, 2020).
# B1: 54-4H03 VH I96M/N99G/G100cT/S100fY, IgG (54-4H03 light chain) (antibody, V domains shown)
# VH: QVQLQQSGPGLVKPSQTLSLTCAISGDSVSSNSVAWNWIRQSPSRGLEWLGRTYFRSKWYTDYAESLKSRMTINPDTSKNEFSLHLKSVTSDDTAVYYCVRGMIFGWPLTGWYFDLWGRGTLVSVSS
# VL: EIVLTQSPGTLSLSPGDSATLSCRASQSVASSYLAWYQQKPGQSPRLLIYATINRAADIPDRFSGSGSGTDFALTISRLEPEDFAVYYCQQFDSSSMYTFGQGTKLEIT
# B2: 54-4H03 VH I96M/N99G/G100cT/S100fY paired with the light chain from 54-1G07, IgG (antibody, V domains shown)
# VH: B1 VH
# VL: EIVLTQSPGTLSLSPGERVTLLCRASHHVSSGYLAWYQQKPGQAPRLLIYGATNRATGIPDRFSGSGSGTDFALTISRLEPEDFAVYYCQQFDSSSMYTFGQGTKLEIK
# B3: 54-1G05 VL T28N/Y30A/N30aV, IgG (antibody, V domains shown)
# VH: QVQLQQSGPRLVKPSQTLSLTCAISGDSVSSSSAVWTWIRQSPSRGLEWLGRTYYRSKWYDDYAVSVQGRITINPDTSKNQISLQLNSVTPDDTAVYYCARSSINIFGVFVMAMDVWGQGTAVTVSS
# VL: EIVLTQSPGTLSLSPGERVTLSCRASQNVAVSYLAWYQQKPGQAPTLLIYGTSTRATGVPDRFSGSGSGTVFTLTISRLEPEDFAVYFCQQYSTSPRALTFGGGTKVEIK
# Legend:
# [1] = target: recombinant HA of H5N1 A/Indonesia/05/2005, biotinylated (Influenza A virus A/Indonesia/05/2005 …, UniProt C5MRF2, strain, biotin); conditions: both partners purified
# [2] = target: recombinant HA of H7N9 A/Shanghai/02/2013, biotinylated (Influenza A virus A/Shanghai/02/2013 …, UniProt R4NN21, strain, biotin); conditions: both partners purified
Binder,binding result [1],binding result [2]
B1,binds,no binding
B2,binds,no binding
B3,binds,binds
